Test results reported in patent publication US20260176364A1 (INSTITUT PASTEUR, published 2026).

Biological target: T1, human α7 nicotinic acetylcholine receptor (human, UniProt P36544 23-502, N-linked glycan on Asn23 (printed numbering))
T1 construct: Homopentamer; On HEK293 or CHO cells (with NACHO) and on Xenopus oocytes; for cryo-EM it was purified and put into nanodiscs with 100 µM nicotine; also called α7-nAChR; hα7-nAChR
Test: immunofluorescence expression control on HEK293 cells (FIG. 13)

B1: α-bungarotoxin (ligand)
chain: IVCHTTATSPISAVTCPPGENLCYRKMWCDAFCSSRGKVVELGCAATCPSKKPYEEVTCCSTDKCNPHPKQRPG
- binding result: binds
